Measurements from US20090176736A1, “PHARMACEUTICAL COMPOSITION FOR CONFORMATIONAL DISEASES” (published 2009).

Tested on: 263K (prion strain of scrapie passaged through hamster)
Assay: Tg7 mouse intracerebrally infected with 263K brain homogenate: incubation period
[1] = Ex 21: icv pump, 25 mg/mL, from day 2, 0.1% (W/V) homogenate

## sodium pentosan polysulfate
Ex 11: icv pump, 1.25 mg/mL, from day 3, 0.1% (W/V) 263K homogenate
  incubation period from intracerebral infection to disease terminal stage: 109.0 ± 7.2 days

## Hydroxypropyl methylhexaose
[1]
  incubation period from intracerebral infection to disease terminal stage: 83.4 ± 4.7 days

## Methylhexaose
[1]
  incubation period from intracerebral infection to disease terminal stage: 76.5 ± 3.5 days
